Measured values from several laboratories, pooled; numbers as filed in NIAID ChemDB.

All rows: growth or infection tests; species: Herpes simplex virus 2; read by: plaque count; measure: EC50

Blank or dashed fields: not listed here.

CCn1c(C)c(C(N)=O)c(=O)c2ccc(-c3ccncc3)cc21 ; cell line: VERO ; result: >50 µg/mL
CC#Cc1cn([C@@H]2O[C@H](COP(=O)(O)OCC(F)(F)F)[C@@H](O)[C@@H]2O)c(=O)[nH]c1=O ; cell line: VERO ; strain: SC16 ; result: >100 µM
Cc1cccc2c1OP(=O)(OC[C@H]1O[C@@H](n3cc(/C=C/Br)c(=O)[nH]c3=O)C[C@@H]1OC(=O)C(C)C)OC2 ; cell line: VERO ; strain: G (TK+) ; result: >128 µg/mL
COc1c(OC)c(OC)c2c(c1O)c(=O)c1ccc(O)c(OC)c1n2C ; cell line: HEF ; result: 4.9 µg/mL
O=C(O)P(=O)(O)O ; strain: Lovelace ; result: 165 µM
[CH3][Sn]([CH3])([Br])[Br].c1ccc(-c2nc3ccccc3[nH]2)nc1 ; cell line: HFF ; strain: MS ; result: 56 µg/mL
CC#Cc1cn([C@@H]2O[C@H](COP(=O)(NCCC)Oc3ccccc3)[C@@H](O)[C@@H]2O)c(=O)[nH]c1=O ; cell line: VERO ; strain: SC16 ; result: >100 µM
CCn1cc2c(=O)ncnc-2c2ccc(-c3ccncc3)cc21 ; cell line: VERO ; result: >100 µg/mL
COc1cc2c(cc1-c1coc3cc4occc4cc3c1=O)OCO2 ; cell line: VERO ; strain: 186 ; result: 18.5 µg/mL
NC(=O)c1cn(-c2ccc(F)cc2)c2cc(Br)ccc2c1=O ; cell line: VERO ; result: >6.25 µg/mL
CC1(C)C=Cc2c(cc(O)c3c(=O)c4ccccc4[nH]c23)O1 ; cell line: HEF ; result: >20 µg/mL
CCn1cc(C(N)=O)c(=O)c2ccccc21 ; cell line: VERO ; result: >50 µg/mL
O=C(O)P(=O)(O)O ; cell line: SIRC ; strain: V10183 ; result: <500 µM
CCn1cc(C(=O)O)c(=O)c2ccc(-c3ccncc3)cc21 ; cell line: VERO ; result: >200 µg/mL
Cc1cccc2c1OP(=O)(OC[C@H]1O[C@@H](n3cc(/C=C/Br)c(=O)[nH]c3=O)C[C@@H]1OC(=O)[C@H](N)Cc1ccccc1)OC2 ; cell line: VERO ; strain: G (TK+) ; result: >128 µg/mL
COc1cc2c(cc1-c1cc3cc4ccoc4cc3oc1=O)OCO2 ; cell line: VERO ; strain: 186 ; result: >50 µg/mL
O=c1[nH]c(=O)n([C@@H]2O[C@H](CO)[C@@H](O)[C@@H]2F)cc1I ; cell line: HEL ; result: 0.161 µM
CCN1C=C2C(=O)CN=C2c2ccc(-c3ccncc3)cc21 ; cell line: VERO ; result: >100 µg/mL
COc1cc(O)c2c(=O)c3cccc(O)c3n(C)c2c1OC ; cell line: HEF ; strain: TK- ; result: 0.92 µg/mL
O=C(O)CP(=O)(O)O ; cell line: SIRC ; strain: 91075 ; result: <100 µM
CC(=O)OC/C=C(C)/C=C/C=C(C)/C=C/C1=C(C)CCCC1(C)C ; result: 36 µM
Cc1cn([C@@H]2O[C@H](CO)[C@@H](O)[C@@H]2O)c(=O)[nH]c1=O ; cell line: HEL ; result: 1.74 µM
CC(=O)CCC(=O)O[C@H]1C[C@H](n2cc(/C=C/Br)c(=O)[nH]c2=O)O[C@@H]1COP1(=O)OCc2cccc(C)c2O1 ; cell line: VERO ; strain: G (TK+) ; result: >128 µg/mL
CCn1cc(C#N)c(=O)c2ccc(-c3ccncc3)cc21 ; cell line: VERO ; result: >100 µg/mL
COc1cc(O)c2c(=O)c3ccc(O)c(OC)c3n(C)c2c1 ; cell line: HEF ; result: 0.59 µg/mL
CC1OP(=O)(OC[C@H]2O[C@@H](n3cc(/C=C/Br)c(=O)[nH]c3=O)C[C@@H]2O)Oc2cccc(Cl)c21 ; cell line: VERO ; strain: G (TK+) ; result: >128 µg/mL
COc1ccc2c(=O)c3c(O)cc4c(c3n(C)c2c1OC)C=CC(C)(C)O4 ; cell line: HEF ; result: >20 µg/mL
O=c1[nH]c(=O)n([C@@H]2O[C@H](CO)[C@@H](O)[C@@H]2O)cc1/C=C/Cl ; cell line: HEL ; result: 513 µM
CC#Cc1cn([C@@H]2O[C@H](COP(=O)(O)Oc3ccccc3)[C@@H](O)[C@@H]2O)c(=O)[nH]c1=O ; cell line: VERO ; strain: SC16 ; result: >100 µM
Cc1c(C)c2c(c(C)c1O)CC[C@@](C)(CCC[C@H](C)CCC[C@H](C)CCCC(C)C)O2 ; result: 60 µM
CCCCCc1c2c(c3[nH]c4c(O)cccc4c(=O)c3c1O)C=CC(C)(C)O2 ; cell line: HEF ; result: 0.82 µg/mL
Cc1cccc2c1OP(=O)(OC[C@H]1O[C@@H](n3cc(/C=C/Br)c(=O)[nH]c3=O)C[C@@H]1OC(=O)[C@H](C)N)OC2 ; cell line: VERO ; strain: G (TK+) ; result: >128 µg/mL
CCCCCc1c2c(c3[nH]c4ccccc4c(=O)c3c1O)C=CC(C)(C)O2 ; cell line: HEF ; result: >20 µg/mL
CCC[CH2][Sn+2][CH2]CCC ; cell line: HFF ; strain: MS ; result: <1 µg/mL
C=Cc1cn([C@H]2C[C@H](O)[C@@H](CO)O2)c(=O)[nH]c1=O ; cell line: HEL ; result: 2.8 µM
[CH3][Sn]([CH3])([Br])[Br].c1cnc2c(c1)ccc1cccnc12 ; cell line: HFF ; strain: MS ; result: 72 µg/mL
CCCCCc1c(OC)cc(O)c2c(=O)c3cccc(O)c3n(C)c12 ; cell line: HEF ; result: 5 µg/mL
O=c1[nH]c(=O)n([C@@H]2O[C@H](CO)[C@@H](O)[C@@H]2O)cc1/C=C/I ; cell line: HEL ; result: 96 µM
[Cl][Sn]([c]1ccccc1)([c]1ccccc1)[c]1ccccc1 ; cell line: HFF ; strain: MS ; result: <1 µg/mL
Cc1cccc2c1OP(=O)(OC[C@H]1O[C@@H](n3cc(/C=C/Br)c(=O)[nH]c3=O)C[C@@H]1OC(=O)[C@@H](N)Cc1ccccc1)OC2 ; cell line: VERO ; strain: G (TK+) ; result: >128 µg/mL
NC(=O)c1cn(-c2ccc(F)cc2)c2cc(Cl)ccc2c1=O ; cell line: VERO ; result: >12.5 µg/mL
CC#Cc1cn([C@@H]2O[C@H](COP(=O)(O)Oc3cccc(Cl)c3)[C@@H](O)[C@@H]2O)c(=O)[nH]c1=O ; cell line: VERO ; strain: SC16 ; result: >10 µM
O=C(O)C(F)P(=O)(O)O ; strain: G ; result: 130 µM
C1C2C3CC4C1C1C2NC3C41 ; cell line: BHK-21 ; result: >25 µg/mL
CCc1cn([C@@H]2O[C@H](CO)[C@@H](O)[C@@H]2O)c(=O)[nH]c1=O ; cell line: HEL ; result: >243 µM
CCn1cc(C(=O)NCCO)c(=O)c2ccc(-c3ccncc3)cc21 ; cell line: VERO ; result: >25 µg/mL
O=C(O)CP(=O)(O)O ; strain: G ; result: 190 µM
O=C1c2cc3ccoc3cc2O[C@@H]2COc3cc4c(cc3[C@]12O)OCO4 ; cell line: VERO ; strain: 186 ; result: >50 µg/mL
CCCCCCCCCCCCCCCC(=O)OC/C=C(C)/C=C/C=C(C)/C=C/C1=C(C)CCCC1(C)C ; result: 100 µM
Cc1cc(C)c2c(c1)COP(=O)(OC[C@H]1O[C@@H](n3cc(/C=C/Br)c(=O)[nH]c3=O)C[C@@H]1O)O2 ; cell line: VERO ; strain: G (TK+) ; result: >128 µg/mL

Repeating the first 5 entries:

compound	cell line	strain	result
CCn1c(C)c(C(N)=O)c(=O)c2ccc(-c3ccncc3)cc21	VERO	-	>50 µg/mL
CC#Cc1cn([C@@H]2O[C@H](COP(=O)(O)OCC(F)(F)F)[C@@H](O)[C@@H]2O)c(=O)[nH]c1=O	VERO	SC16	>100 µM
Cc1cccc2c1OP(=O)(OC[C@H]1O[C@@H](n3cc(/C=C/Br)c(=O)[nH]c3=O)C[C@@H]1OC(=O)C(C)C)OC2	VERO	G (TK+)	>128 µg/mL
COc1c(OC)c(OC)c2c(c1O)c(=O)c1ccc(O)c(OC)c1n2C	HEF	-	4.9 µg/mL
O=C(O)P(=O)(O)O	-	Lovelace	165 µM

ECn: concentration that inhibits the pathogen or its effect by n%. Neighbouring rows are from separate reports.